Results of unrelated studies side by side (data: NIAID ChemDB).

Inhibition is in % at the dose shown (toxicity tests: loss of growth or viability).

smiles,test,species,strain or isolate,protein,method,endpoint,dose,value
O=C(O)c1cc(-n2c(-c3ccccc3)cc3c2CCc2ccccc2-3)ccc1O,culture,Mycobacterium tuberculosis,H37Rv,,resazurin,inhibition,6.25 µg/mL,14%
Nc1ccc(S(=O)(=O)c2ccc(N)nc2)cc1,culture,Mycobacterium tuberculosis,H37Rv,,,MIC,,50 µg/mL
FC(F)(F)c1cc(-c2cncc(N3CCN(c4ccccc4)CC3)n2)cc(C(F)(F)F)c1,target,Cytomegalovirus,,UL97 kinase,,IC50,,<100 µM
COc1ccc2ccccc2c1C(C)=O,culture,Mycobacterium tuberculosis,H37Rv,,,MIC,,50 µg/mL
COc1ccc(N2CCN(c3cncc(-c4ccccc4C)n3)CC2)cc1OC,target,Cytomegalovirus,,UL97 kinase,,inhibition,10 µM,>15%
Cc1cc(=O)[nH]c2c(N)cccc12,culture,Mycobacterium tuberculosis,H37Rv,,,MIC,,>100 µg/mL
CC[C@@]1(O)C(=O)OCc2c1cc1n(c2=O)Cc2cc3c(OC)cccc3nc2-1,culture,Mycobacterium tuberculosis,H37Rv,,resazurin,inhibition,6.25 µg/mL,14%
NC(=O)NC(CCCN=C(N)N)C(=O)O,culture,Mycobacterium tuberculosis,H37Rv,,,MIC,,>100 µg/mL
COc1ccccc1N1CCN(c2cncc(-c3ccoc3)n2)CC1,target,Cytomegalovirus,,UL97 kinase,,inhibition,1 µM,<50%
Cc1c2oc3c(C)ccc(C(=O)NCCc4ccccn4)c3nc-2c(C(=O)NCCc2ccccn2)c(N)c1=O,culture,Mycobacterium tuberculosis,H37Rv,,BACTEC,inhibition,12.5 µg/mL,-31%
Cc1cc(C)cc(-c2cncc(N3CCN(c4cnccn4)CC3)n2)c1,target,Cytomegalovirus,,UL97 kinase,,inhibition,10 µM,>15%
Fc1ccc(N2CCCCC2)c(NC(=S)c2ccncc2)c1,host protein,,,JNK3,kinase activity,inhibition,10 µM,1%
Nc1ccc(Cl)c(Cl)c1,culture,Mycobacterium tuberculosis,H37Rv,,,MIC,,>100 µg/mL
FC(F)(F)c1ccccc1NC(=S)SCc1ccc2c(c1)OCO2,culture,Mycobacterium tuberculosis,H37Rv,,BACTEC,MIC,,128 µg/mL
CN(C)c1ccc(C(c2ccccc2)c2ccccc2)cc1,culture,Mycobacterium tuberculosis,H37Rv,,,MIC,,>100 µg/mL
OCc1ccc(-c2cncc(N3CCN(c4cccc(Cl)c4)CC3)n2)cc1,target,Cytomegalovirus,,UL97 kinase,,IC50,,<10 µM
NNC(=O)Cc1cccnc1,culture,Mycobacterium tuberculosis,H37Rv,,BACTEC,MIC,,≥12.5 µg/mL
Fc1ccc(-c2cncc(N3CCN(c4cccc(Cl)c4)CC3)n2)cc1Cl,target,Cytomegalovirus,,UL97 kinase,,inhibition,10 µM,>15%
O=c1c2cncnc2sc2nccn12,culture,Mycobacterium tuberculosis,H37Rv,,resazurin,inhibition,6.25 µg/mL,-20%
CC(=O)c1cccs1,culture,Mycobacterium tuberculosis,H37Rv,,,MIC,,>100 µg/mL
C=CCNc1nc2c(s1)c(C)c(O)c1ccccc12,culture,Mycobacterium tuberculosis,H37Rv,,resazurin,inhibition,6.25 µg/mL,8%
O=C(Nc1ccc(S(=O)(=O)O)c2cccc(O)c12)c1ccccc1,culture,Mycobacterium tuberculosis,H37Rv,,,MIC,,>100 µg/mL
C=CCc1ccc(OC)c(OC)c1,culture,Candida tropicalis,2858,,turbidity,MIC90,,345 µg/mL
Nc1nccc(Nc2ccc([As](SCC(=O)[O-])SCC(=O)[O-])cc2)n1.[Na+].[Na+],culture,Mycobacterium tuberculosis,H37Rv,,,MIC,,>100 µg/mL
Fc1ccc(-c2cncc(N3CCN(c4ccc(C(F)(F)F)cc4)CC3)n2)cc1,target,Cytomegalovirus,,UL97 kinase,,inhibition,10 µM,>15%
CCN(CC)c1ccc(/C=N/NC(=O)C(=O)N/N=C/c2ccc(N(CC)CC)cc2)cc1,culture,Mycobacterium tuberculosis,H37Rv,,BACTEC,MIC bound,,>12.5 µg/mL
OCc1cccc(-c2cncc(N3CCN(CCN4CCCC4)CC3)n2)c1,target,Cytomegalovirus,,UL97 kinase,,IC50,,<100 µM
CO[C@@H]1[C@@H](OC(=O)c2ccc(C)[nH]2)[C@@H](O)C(Oc2ccc3c(O)c(NC(=O)c4c[nH]c(C(=O)Nc5c(O)c6ccc(OC7OC(C)(C)[C@H](OC)[C@@H](OC(=O)c8ccc(C)[nH]8)[C@H]7O)c(C)c6oc5=O)c4C)c(=O)oc3c2C)OC1(C)C,culture,Mycobacterium tuberculosis,KM-R,,,MIC,,12.8 µg/mL
Cc1cc(C)c(N)c(S(=O)(=O)O)c1,culture,Mycobacterium tuberculosis,H37Rv,,,MIC,,>100 µg/mL
Cc1ccc(NC(=O)CCl)cc1[N+](=O)[O-],culture,Mycobacterium tuberculosis,H37Rv,,BACTEC,inhibition,12.5 µg/mL,86%
COc1ccc2cc(-c3cncc(N4CCN(c5ccccc5OC)CC4)n3)ccc2c1,target,Cytomegalovirus,,UL97 kinase,,inhibition,10 µM,>15%
COC(=O)c1c(C(N)=O)c(C)n(NC(N)=O)c1C,culture,Mycobacterium tuberculosis,H37Rv,,BACTEC,MIC bound,,>12.5 µg/mL
O=C(O)c1cc(Br)cc2c1oc1ccccc12,culture,Mycobacterium tuberculosis,H37Rv,,,MIC,,100 µg/mL

The first 5 rows once more:

smiles,test,species,strain or isolate,protein,method,endpoint,dose,value
O=C(O)c1cc(-n2c(-c3ccccc3)cc3c2CCc2ccccc2-3)ccc1O,culture,Mycobacterium tuberculosis,H37Rv,,resazurin,inhibition,6.25 µg/mL,14%
Nc1ccc(S(=O)(=O)c2ccc(N)nc2)cc1,culture,Mycobacterium tuberculosis,H37Rv,,,MIC,,50 µg/mL
FC(F)(F)c1cc(-c2cncc(N3CCN(c4ccccc4)CC3)n2)cc(C(F)(F)F)c1,target,Cytomegalovirus,,UL97 kinase,,IC50,,<100 µM
COc1ccc2ccccc2c1C(C)=O,culture,Mycobacterium tuberculosis,H37Rv,,,MIC,,50 µg/mL
COc1ccc(N2CCN(c3cncc(-c4ccccc4C)n3)CC2)cc1OC,target,Cytomegalovirus,,UL97 kinase,,inhibition,10 µM,>15%

An empty or dashed field is not shown. A number after MIC or MFC names an inhibition level or a share of isolates. Rows are shuffled and stem from different studies. ICn is the concentration giving n% inhibition. MIC bound comes from a single tested concentration.